Compound potency records, mixed from different reports. Data source: NIAID ChemDB in PubChem.

All rows: whole-cell or culture tests; agent: Varicella zoster virus; read by: cytopathic effect; measure: EC50

An empty or dashed field is not shown.

smiles,strain or isolate,cells,value
C#CCNc1nc(N)nc2c1ncn2/C=C1/C[C@@H]1CO,-,HFF,>74 µM
Nc1nc2c(ncn2[C@@H]2CO[C@H](CO)[C@@H](O)C2)c(=O)[nH]1,-,VERO,1–10 µM
Nc1ncnc2c1ncn2C[C@@H](CF)OCP(=O)(O)O,-,HEL,102 µM
CC#COc1cn([C@H]2C[C@H](O)[C@@H](CO)O2)c(=O)[nH]c1=O,VEX411,HEF,0.5 µg/mL
COc1ncnc2c1ncn2[C@@H]1O[C@H](CO)[C@@H](O)[C@@H]1O,Pritchard,MRC-5,0.5 µM
Nc1ncnc2nn(C[C@@H](CF)OCP(=O)(O)O)nc12,OKA (TK+),HEL,>10 µg/mL
C[C@H](Cn1cnc2c(N)nc(N)nc21)OCP(=O)(O)O,-,HEL,>30 µM
CCCCCSc1nc(N)nc2c1ncn2/C=C1/C[C@@H]1CO,-,HFF,2.3 µM
Nc1ncc2c(ncn2COC(CO)CO)n1,-,-,0.03 µg/mL
Nc1nc(NCC2CC2)c2ncn(/C=C3/C[C@@H]3CO)c2n1,-,HFF,10 µM
Cc1c(N)nc(N)nc1OCCOCP(=O)(O)O,07/1 (TK-),HEL,42 µM
COC(=O)[C@H](C)NP(=O)(OC[C@H]1O[C@@H](n2cc(/C=C/Br)c(=O)[nH]c2=O)C[C@@H]1O)Oc1ccc(Cl)cc1,OKA,HEL,0.07 µM
Nc1nc2c(ncn2CCC(CO)CO)c(=O)[nH]1,Clinical isolate VZV-28,HEL,4.35 µM
Nc1nc2c(ncn2[C@@H]2C=C[C@H](CO)[C@@H](O)C2)c(=O)[nH]1,OKA,E6SM,0.64 µg/mL
C#C[C@H](O)C1=C[C@@H](n2cnc3c(N)ncnc32)[C@H](O)[C@@H]1O,OKA YS,HEL,>50 µg/mL
COC(=O)CC(SCCO)n1cc(C)c(=O)[nH]c1=O,-,HFF,>200 µM
Nc1ncc2ncn(C[C@@H](CO)OCP(=O)(O)O)c2n1,-,HEL,121 µM
Nc1nc2c(ncn2CC[C@H](O)CCO)c(=O)[nH]1,OKA,HEL,>400 µg/mL
CCCCCCCC/C=C/CCCCCCCC(=O)OCC(CO)OCn1cnc2c(=O)[nH]c(N)nc21,YS,HEL,4.5 µM
CC[C@H](O)C1=C[C@@H](n2cnc3c(N)ncnc32)[C@H](O)[C@@H]1O,OKA YS,HEL,>50 µg/mL
N#CCc1c(N)nc(N)nc1OCCOCP(=O)(O)O,07/1 (TK-),HEL,110 µM
Nc1nc2c(ncn2COC(CO)CO)c(=O)[nH]1,-,VERO,10–100 µM
CC1(C)[C@@H](CO)CC[C@@]1(C)Cn1cnc2c(N)ncnc21,YS/R (TK-),HEL,>50 µg/mL
C#CCNc1nc(N)nc2c1ncn2/C=C1/C[C@@H]1CO,-,HFF,>74 µM
NC1=NC2C(C=CN2CC(CO)CCO)C(=O)N1,OKA,HEL,0.0043 µg/mL
COC(=O)C[C@@H](SCCO)n1cnc2c(Cl)nc(N)nc21,-,HFF,147 µM
CC1(C)[C@@H](CO)CC[C@@]1(C)Cn1cc(Br)c(=O)[nH]c1=O,07/1 (TK-),HEL,>50 µg/mL
C=CCNc1nc(N)nc2c1ncn2/C=C1/C[C@@H]1CO,-,HFF,>367 µM
CCCCCOc1ccc(-c2cc3cn([C@H]4C[C@H](O)[C@@H](CO)O4)c(=O)nc3o2)cc1,07/1 (TK-),HEL,>50 µM
O=C(O)CP(=O)(O)O,Oka acyclovir-resistant,HEL,45.7 µM
Nc1nc2c(ncn2[C@H]2C=C[C@@H](CO)[C@H](O)C2)c(=O)[nH]1,07/1 (TK-),E6SM,5.8 µg/mL
CC(C)CS[C@@H]1C[C@H](n2cnc3c(N)ncnc32)[C@@H](O)[C@H]1O,OKA,HEL,>200 µg/mL
O=c1[nH]c(=O)n([C@H]2C[C@H](O)[C@@H](CO)O2)cc1/C=C/Br,YS/R (TK-),HEL,>400 µg/mL
Nc1nc(OCC2CC2)c2ncn(/C=C3/C[C@@H]3CO)c2n1,-,HFF,0.5 µM
O=C(O)P(=O)(O)O,Clinical isolate VZV-32,HEL,91.8 µM
Nc1nc2c(ncn2C[C@H](CF)OCP(=O)(O)O)c(=O)[nH]1,-,HEL,107 µM
Nc1ccn(CC[C@H](O)CCO)c(=O)n1,YS,HEL,>400 µg/mL
Nc1nc2c(ncn2COCCO)c(=O)[nH]1,07/1 (TK-),HEL,4 µg/mL
O=c1nc2oc(-c3ccc(Cl)cc3)cc2cn1[C@H]1C[C@H](O)[C@@H](CO)O1,YS/R (TK-),HEL,>50 µM
Nc1nc(NC2CC2)c2ncn(/C=C3/C[C@@H]3CO)c2n1,-,HFF,7 µM
CCCCCCOc1ccc(-c2cc3cn([C@H]4C[C@H](O)[C@@H](CO)O4)c(=O)nc3o2)cc1,07/1 (TK-),HEL,>50 µM
Nc1nc(F)nc2c1ncn2[C@@H]1C=C(CO)[C@@H](O)[C@H]1O,07/1 YS/R (TK-),VERO,100 µg/mL
C[C@H](Cn1nnc2c(N)ncnc21)OCP(=O)(O)O,YS/R (TK-),HEL,8 µg/mL
O=c1[nH]c(=O)n([C@H]2C[C@H](O)[C@@H](CO)O2)cc1/C=C/Br,VEX411,HEF,0.01 µg/mL
Nc1ncnc2c1ncn2C[C@@H](CO)OCP(=O)(O)O,Oka CF1603-resistant,HEL,0.028 µM
CO[C@H](CO)[C@@H](O)CCn1cnc2c(=O)[nH]c(N)nc21,YS,HEL,>400 µg/mL
COC(=O)[C@H](C)NP(=O)(OC[C@H]1O[C@@H](n2cc(/C=C/Br)c(=O)[nH]c2=O)C[C@@H]1O)Oc1ccccc1,YS (TK-),HEL,>50 µM
Cc1cn(CC[C@H](O)CCO)c(=O)[nH]c1=O,07/1 (TK-),HEL,>400 µg/mL
O=c1[nH]c(=O)n([C@H]2C[C@H](O)[C@@H](CO)O2)cc1/C=C/Br,YS/R (TK-),HEL,>150 µM
Nc1nc2c(ncn2[C@@H](CCO)SCCO)c(=O)[nH]1,-,HFF,149 µM
Nc1nc2c(ncn2CCC(CO)CO)c(=O)[nH]1,-,VERO,10–100 µM
CC[C@@H](O)C1=C[C@@H](n2cnc3c(N)ncnc32)[C@H](O)[C@@H]1O,OKA YS,HEL,>50 µg/mL
CCCCCCCOc1ccc(-c2cc3cn([C@H]4C[C@H](O)[C@@H](CO)O4)c(=O)nc3o2)cc1,OKA,HEL,<0.5 µM
CCCOc1nc(N)nc2c1ncn2/C=C1/C[C@@H]1CO,-,HFF,0.5 µM
Nc1nc2nn(CCOCP(=O)(O)O)nc2c(=O)[nH]1,OKA (TK+),HEL,40 µg/mL
Cc1cn([C@@H]2O[C@H](CO)[C@@H](O)[C@@H]2O)c(=O)[nH]c1=O,VEX411,HEF,0.04 µg/mL
CC1(C)[C@@H](CO)CC[C@@]1(C)Cn1nnc2c(=O)[nH]cnc21,07/1 (TK-),HEL,>50 µg/mL
Nc1ncnc2c1ncn2CCCC(O)CF,07-01/TK-,HEL,>50 µg/mL
Nc1cc(OCCOCP(=O)(O)O)nc(N)n1,OKA,HEL,4.5 µM
COC(=O)C(Cc1c[nH]c2ccccc12)NP(=O)(O)OCC1C/C1=C/n1cnc2c(N)ncnc21,-,HFF,5 µM
CCCSc1nc(N)nc2c1ncn2/C=C1/C[C@@H]1CO,-,HFF,>69 µM
C[C@H](Cn1nc2ncnc(N)c2n1)OCP(=O)(O)O,YS (TK+),HEL,5 µg/mL
Nc1nc2c(ncn2CCCC(O)CF)c(=O)[nH]1,07-01/TK-,HEL,>50 µg/mL
Nc1nc(N)c(Br)c(OCCOCP(=O)(O)O)n1,OKA,HEL,150 µM
Nc1nc(N)c2ncn(C[C@@H](CF)OCP(=O)(O)O)c2n1,-,HEL,>150 µM
CC(O)CCCCCC(CCCCCCCCCCCCCC1CC(=O)OC[C@H]2O[C@@H](OC(CCCCCCCCCCCC(CCCCCC(C)O)O[C@@H]3O[C@H](CO)[C@@H](O)[C@H](O)[C@H]3O)CC(=O)OC[C@@H]3O[C@H](O1)[C@@H](O)[C@H](O)[C@H]3O)[C@H](O)[C@@H](O)[C@@H]2O)O[C@@H]1O[C@H](CO)[C@@H](O)[C@H](O)[C@H]1O,OKA,VERO,3 µg/mL
Nc1ncnc2c1ncn2C[C@H](CF)OCP(=O)(O)O,-,HEL,>300 µM
Cc1cn([C@H]2C/C(=N\O)[C@@H](CO)O2)c(=O)[nH]c1=O,YS,HEL,>200 µg/mL

10 of the rows above, restated:

smiles	strain or isolate	cells	value
CCCCCOc1ccc(-c2cc3cn([C@H]4C[C@H](O)[C@@H](CO)O4)c(=O)nc3o2)cc1	07/1 (TK-)	HEL	>50 µM
CCCCCCCOc1ccc(-c2cc3cn([C@H]4C[C@H](O)[C@@H](CO)O4)c(=O)nc3o2)cc1	OKA	HEL	<0.5 µM
CC1(C)[C@@H](CO)CC[C@@]1(C)Cn1nnc2c(=O)[nH]cnc21	07/1 (TK-)	HEL	>50 µg/mL
Nc1ncnc2c1ncn2C[C@@H](CF)OCP(=O)(O)O	-	HEL	102 µM
C#CCNc1nc(N)nc2c1ncn2/C=C1/C[C@@H]1CO	-	HFF	>74 µM
O=c1[nH]c(=O)n([C@H]2C[C@H](O)[C@@H](CO)O2)cc1/C=C/Br	VEX411	HEF	0.01 µg/mL
C[C@H](Cn1cnc2c(N)nc(N)nc21)OCP(=O)(O)O	-	HEL	>30 µM
COC(=O)[C@H](C)NP(=O)(OC[C@H]1O[C@@H](n2cc(/C=C/Br)c(=O)[nH]c2=O)C[C@@H]1O)Oc1ccccc1	YS (TK-)	HEL	>50 µM
Nc1nc(NCC2CC2)c2ncn(/C=C3/C[C@@H]3CO)c2n1	-	HFF	10 µM
CCCOc1nc(N)nc2c1ncn2/C=C1/C[C@@H]1CO	-	HFF	0.5 µM

ECn: concentration that inhibits the pathogen or its effect by n%. Rows are shuffled and stem from different studies. Two numbers with a dash give a range or band.